Results of unrelated studies side by side (data: NIAID ChemDB).

All rows: toxicity to cultured cells; cell line: MT-4; method: MTT; measure: CC50

CCn: concentration that lowers growth or viability of the cells by n%. Lines come from different laboratories, so protocols vary.

CC(C)CN(C[C@@H](O)[C@H](Cc1ccccc1)NC(=O)O[C@H]1CO[C@H]2OCC[C@H]21)S(=O)(=O)c1ccc(-c2ccncc2)cc1 ; value: 14.8 µM
COc1cc(Nc2nc3ccccc3n3cccc23)cc(OC)c1OC ; value: >100 µM
O=C(Cc1ccccn1)NNC(=S)Nc1cccc(C(F)(F)F)c1 ; value: >100 µM
O=C(O)CCC(NC(=O)c1ccc(Nc2nc3cc(C(F)(F)F)ccc3n3cccc23)cc1)C(=O)O ; value: >100 µM
CCc1c(Cc2cc(C)cc(C)c2)n(COCC#Cc2ccc(C=O)cc2)c(=O)[nH]c1=O ; value: 45 µM
CC(C)CN(C[C@@H](O)[C@H](Cc1ccccc1)NC(=O)O[C@H]1CO[C@H]2OCC[C@H]21)S(=O)(=O)c1ccc(-c2csc(Nc3ccncc3)n2)cc1 ; value: 11.2 µM
CCc1c(Cc2cc(C)cc(C)c2)n(COCC#Cc2cc3ccccc3c3ccccc23)c(=O)[nH]c1=O ; value: 80 µM
Cc1cccc(C(C)c2c(C(C)C)c(=O)[nH]c(=O)n2COCc2ccccc2)c1 ; value: 34.3 µM
CCOC(=O)c1ccc(Nc2nc3cc(C(F)(F)F)ccc3n3cccc23)cc1 ; value: >100 µM
S=c1[nH]nc(Cc2ccccn2)n1-c1ccc(Cl)c(Cl)c1 ; value: >100 µM
C=C(c1ccc(C)cc1)c1c(C(C)C)c(=O)[nH]c(=O)n1COCc1ccccc1 ; value: 35.48 µM
FC(F)(F)c1cccc(NC(=S)NC2CCN(Cc3ccccc3)CC2)c1 ; value: 26 µM
CCc1c(Cc2cc(C)cc(C)c2)n(COCC#CC#CCO[Si](c2ccccc2)(c2ccccc2)C(C)(C)C)c(=O)[nH]c1=O ; value: 76 µM
CCCc1nc(-c2ccc(S(=O)(=O)N(CC(C)C)C[C@@H](O)[C@H](Cc3ccccc3)NC(=O)O[C@H]3CO[C@H]4OCC[C@H]43)cc2)co1 ; value: >32.4 µM
CCc1c(Cc2ccccc2C)n(COCC#Cc2ccc(NC(=O)CBr)cc2)c(=O)[nH]c1=O ; value: 41 µM
CC(=O)OC(c1ccccc1)c1nc(-c2ccc(S(=O)(=O)N(CC(C)C)C[C@@H](O)[C@H](Cc3ccccc3)NC(=O)O[C@H]3CO[C@H]4OCC[C@H]43)cc2)co1 ; value: >100 µM
C=C(c1ccc(F)cc1)c1c(C)c(=O)[nH]c(=O)n1COCc1ccccc1 ; value: 151 µM
O=C(Cc1ccccn1)NNC(=S)Nc1cccc(Br)c1 ; value: >100 µM
ClCc1nc2ccccc2n2cccc12 ; value: 6 µM
CC(C)CN(C[C@@H](O)[C@H](Cc1ccccc1)NC(=O)O[C@H]1CO[C@H]2OCC[C@H]21)S(=O)(=O)c1ccc(-c2coc(-c3ccc(C#N)cc3)n2)cc1 ; value: >32.4 µM
Cc1ccc(-n2c(Cc3ccccn3)n[nH]c2=S)cc1Cl ; value: >100 µM
Cc1c(C(C)(O)c2cccc3ccccc23)n(COCc2ccccc2)c(=O)[nH]c1=O ; value: 41.78 µM
CCOC(=O)CCC(NC(=O)c1ccc(Nc2nc3ccccc3n3cccc23)cc1)C(=O)OCC ; value: 48 µM
Cc1c(C(C)c2ccc3ccccc3c2)n(COCc2ccccc2)c(=O)[nH]c1=O ; value: >312 µM
Fc1ccc(NC(=S)NCc2ccco2)cc1Cl ; value: 35.8 µM
S=c1[nH]nc(Cc2ccccn2)n1-c1cccc(Br)c1 ; value: >100 µM
CCc1c(Cc2ccccc2C)n(COCC#Cc2ccccc2)c(=O)[nH]c1=O ; value: 26 µM
CN1C(=O)[C@]2(C[C@@H]2c2ccc(Cl)cc2)c2ccccc21 ; value: 7.6 µg/mL
Fc1ccc(NC(=S)NC2CCN(Cc3ccccc3)CC2)cc1 ; value: 34 µM
CCc1c(Cc2cc(C)cc(C)c2)n(COCC#Cc2ccc(N)cc2)c(=O)[nH]c1=O ; value: 40 µM
CC(C)CN(C[C@@H](O)[C@H](Cc1ccccc1)NC(=O)O[C@H]1CO[C@H]2OCC[C@H]21)S(=O)(=O)c1ccc(-c2coc(-c3ccco3)n2)cc1 ; value: >32.4 µM
CCc1c(Cc2cc(C)cc(C)c2)n(COCC#Cc2ccc(O)cc2)c(=O)[nH]c1=O ; value: 20 µM
Cc1ccc(C(C)(O)c2c(C)c(=O)[nH]c(=O)n2COCc2ccccc2)cc1 ; value: 141.6 µM
Fc1ccc(-n2c(Cc3ccccn3)n[nH]c2=S)cc1Cl ; value: >100 µM
CCC(O)(c1ccc(OC)cc1)c1c(C)c(=O)[nH]c(=O)n1COCc1ccccc1 ; value: 63.81 µM
Cc1ccc([C@H]2C[C@]23C(=O)N(C)c2ccccc23)cc1 ; value: 0.39 µg/mL
Brc1cccc(Nc2nnc(Cc3ccccn3)s2)c1 ; value: 74 µM
S=C(Nc1ccc(Cl)cc1)NC1CCN(Cc2ccccc2)CC1 ; value: 18 µM
CCC(O)(c1ccccc1C)c1c(C)c(=O)[nH]c(=O)n1COCc1ccccc1 ; value: 163 µM
CCc1c(Cc2cc(C)cc(C)c2)n(COCc2cn(-c3cccnc3)nn2)c(=O)[nH]c1=O ; value: >100 µM
CCC(c1cccc(C)c1)c1c(C)c(=O)[nH]c(=O)n1COCc1ccccc1 ; value: 32.84 µM
CCc1c(Cc2cc(C)cc(C)c2)n(COCc2ccc(C#CCO)cc2)c(=O)[nH]c1=O ; value: 41 µM

The last 3 rows once more:

SMILES,value
CCc1c(Cc2cc(C)cc(C)c2)n(COCc2cn(-c3cccnc3)nn2)c(=O)[nH]c1=O,>100 µM
CCC(c1cccc(C)c1)c1c(C)c(=O)[nH]c(=O)n1COCc1ccccc1,32.84 µM
CCc1c(Cc2cc(C)cc(C)c2)n(COCc2ccc(C#CCO)cc2)c(=O)[nH]c1=O,41 µM